Source: PubChem BioAssay AID624099 (ICCB-Longwood, 2012)
Here is one part, drawn at random, of about 21,000 reagents. In the full data, 497 (2.4%) are marked active. 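Higher z means weaker E2 silencing; only reporter increases were scored, and knock-downs that hurt cell survival may mask genuine repressor factors.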 Entries without a mark were called inactive.

Test: 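Knock-downs relieving repression by E2 of an HPV18 LCR luciferase reporter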 (primary screen)
Cell system: human C33A cervical carcinoma cells (HPV-negative) stably expressing BPV1 E2 and an HPV18 LCR luciferase reporter
Reagents: siRNA pool against human genes, 40 nM
Timing: 72 h
Read-out: 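HPV18 LCR reporter light per well, converted to plate-wise z-scores that exclude control wells, and averaged over triplicate plates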
Direction: mean z-score and z-score: higher = stronger reporter signal, weaker E2 silencing
Rule for the call: 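Mean z ≥ 2 together with z ≥ 2 in two or more of the three replicates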

| target gene | mean z-score | z-score, replicate A | z-score, replicate B | z-score, replicate C |
| --- | --- | --- | --- | --- |
| EFNB1 | -1.62 | -1.62 | -1.67 | -1.56 |
| THNSL2 | -1.03 | -1.3 | -1.07 | -0.71 |
| RANBP10 | -0.86 | -0.85 | -0.67 | -1.07 |
| NFIB | -1.61 | -1.6 | -1.48 | -1.74 |
| FBXO5 | -0.07 | -0.27 | 0.12 | -0.07 |
| LOC400741 (retired record) | 0.85 | 0.79 | 0.92 | 0.84 |
| SERHL | 0.9 | 0.97 | 0.55 | 1.19 |
| IVNS1ABP | -0.01 | 0.17 | -0.23 | 0.04 |
| SLC52A2 | 0.07 | 0.15 | -0.25 | 0.31 |
| LOC388420 (retired record) | -0.97 | -1.22 | -0.83 | -0.87 |
| LOC402469 (retired record) | -1.06 | -1.18 | -1.14 | -0.85 |
| EMX1 | 0.53 | 0.64 | 0.34 | 0.63 |
| NRK | -0.02 | -0.26 | -0.16 | 0.36 |
| COX4I2 | -0.98 | -0.83 | -1.16 | -0.95 |
| NMT1 | 0.72 | 0.95 | 0.43 | 0.79 |
| LOC388227 (retired record) | -0.78 | -0.94 | -0.84 | -0.56 |
| PKLR | -1.35 | -1.42 | -1.29 | -1.33 |
| OR10J3 | -0.01 | 0.16 | -0.07 | -0.12 |
| STOML2 | 0.69 | 0.8 | 0.9 | 0.37 |
| C14orf181 (retired record) | -0.02 | – | -0.29 | 0.24 |
| MSH2 | 0.25 | 0.25 | -0.13 | 0.61 |
| THBD | 0.98 | 1.16 | 1.03 | 0.76 |
| POMP | -0.78 | 0.09 | -0.31 | -2.12 |
| TYRP1 | 0.43 | 0.22 | 0.57 | 0.49 |
| CMKLR2 | 0.65 | 0.73 | 0.63 | 0.58 |
| NSMAF | 0.28 | 0.18 | 0.23 | 0.44 |
| KRTCAP2 | 2.1 (active) | 2.41 | 1.49 | 2.39 |
| MAGED1 | -1 | -0.81 | -1.14 | -1.04 |
| CDH26 | -0.1 | -0.42 | -0.14 | 0.26 |
| LOC391347 (retired record) | 0.59 | 0.49 | 0.5 | 0.78 |
| EFEMP2 | 1.36 | 1.72 | 1.45 | 0.89 |
| BPHL | 0.1 | 0.01 | 0.02 | 0.28 |
| COMMD6 | -0.66 | -0.26 | -1.09 | -0.61 |
| PHLDB3 | -1.56 | -1.67 | -1.37 | -1.64 |
| OR1D5 | 1.31 | 1.02 | 1.18 | 1.73 |
| ADK | 0.76 | 0.52 | 0.59 | 1.16 |
| PEX2 | 0.16 | 0.2 | 0.27 | 0.02 |
| IFT20 | -0.52 | -0.25 | -0.65 | -0.66 |
| PLEKHA4 | 2.01 | 1.85 | 2.34 | 1.86 |
| DEPDC7 | 0.01 | -0.18 | -0.26 | 0.45 |
| TAPBPL | -0.56 | -0.45 | -0.3 | -0.92 |
| FUOM | -1.82 | -2.28 | -1.63 | -1.57 |
| LOC401620 (retired record) | -1.03 | -1.29 | -0.93 | -0.87 |
| WARS1P1 | 1 | 1.32 | 0.72 | 0.96 |
| GPR20 | 1.03 | 0.85 | 1.05 | 1.19 |
| NR1I3 | -0.29 | -0.38 | -0.23 | -0.26 |
| UBA3 | 0.86 | 1.34 | 0.61 | 0.64 |
| TBC1D7 | -0.39 | -0.19 | -0.48 | -0.49 |
| FLJ32154 (retired record) | 0.21 | 0.66 | 0.17 | -0.19 |
| TEX36 | 0.75 | 0.99 | 0.72 | 0.55 |
| TPTEP1 | 0.48 | 1.1 | 0.15 | 0.21 |
| TMEM25 | 3.29 (active) | 3.41 | 3.8 | 2.64 |
| LUC7L | 0.1 | -0.17 | 0.23 | 0.24 |
| MAGEA11 | -0.48 | -0.59 | -0.55 | -0.3 |
| MBD6 | 0.2 | 0.17 | 0.12 | 0.31 |
| RAD1 | 0.59 | 0.62 | 0.68 | 0.47 |
| SLC17A6 | 1.78 | 1.72 | 1.77 | 1.87 |
| APC2 | 0.67 | 0.85 | 0.51 | 0.64 |
| ERFE | 0.69 | 0.73 | 0.82 | 0.51 |
| RUFY3 | 0.01 | -0.13 | 0.07 | 0.1 |
| ABI3 | 1.94 | 1.78 | 2.04 | 1.99 |
| GAK | 0.48 | 0.25 | 0.29 | 0.9 |
| PLAC4 | 0.62 | 1.59 | -0.28 | 0.56 |
| DSC2 | -1.27 | -1.03 | -1.12 | -1.66 |
| LOC728660 | -0.33 | -0.4 | -0.27 | -0.33 |
| DCAF7 | -1.38 | -1.43 | -1.56 | -1.15 |
| CDH13 | 0.29 | 0.44 | 0.48 | -0.04 |
| MAP4K2 | 0.78 | 0.89 | 0.25 | 1.2 |
| LOC389149 (retired record) | 0.75 | 0.45 | 0.98 | 0.82 |
| GALNT2 | -0.15 | -0.17 | -0.07 | -0.19 |
| LOC401625 (retired record) | 1.21 | 0.67 | 1.44 | 1.51 |
| LOC400923 (retired record) | -0.58 | -0.79 | -0.47 | -0.47 |
| PRCP | -0.36 | 0.12 | -0.67 | -0.53 |
